Data published in PMC10100877, “Identification of Small-Molecule Inhibitors of the Salmonella FraB Deglycase Using a Live-Cell Assay” (Microbiology Spectrum, 2023).

The chains behind the UniProt entries cited, without tags or fusion partners. Residues count along the entry.
UniProt Q8ZLD0, 1-325: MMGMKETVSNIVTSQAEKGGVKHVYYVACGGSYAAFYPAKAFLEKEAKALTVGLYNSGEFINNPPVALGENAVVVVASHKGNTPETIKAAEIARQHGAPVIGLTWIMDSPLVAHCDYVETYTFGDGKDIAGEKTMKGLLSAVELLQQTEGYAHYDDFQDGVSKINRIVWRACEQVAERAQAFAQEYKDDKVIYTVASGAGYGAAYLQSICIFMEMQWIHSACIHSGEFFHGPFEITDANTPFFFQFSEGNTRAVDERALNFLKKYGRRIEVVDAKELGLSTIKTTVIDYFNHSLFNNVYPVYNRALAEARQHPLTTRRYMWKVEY

Experiments:
[1] = test system: wild-type Salmonella (ASD200) live cells; assay: Live-cell growth assay, concentration-response (IC50/IC90) of the top 8 purchased compounds; type: cell-based, Salmonella enterica serovar Typhimurium; details: M9 minimal medium, 5 mM glucose, 1 mM F-Asn, 17-h time point, 95% CI in brackets
recombinant FraB = recombinant FraB (Salmonella enterica subsp. enterica serovar Typhimurium, UniProt Q8ZLD0); details: read-out: IC50 with recombinant FraB (mean ± SE); 0.2 μM His6-FraB, 1 mM 6-P-F-Asp, 30 min preincubation; NI = no inhibition observed with 1 mM compound

## Nc1nonc1-c1no[n+]([O-])c1-c1nonc1N
[1]; read-out: IC50 with live cells, value (95% CI), concentration that inhibits growth to 50%
  IC50: 89 µM
[1]; read-out: IC90 with live cells, value (95% CI), concentration that inhibits growth to 90%
  IC90: 259 µM
Recombinant FraB
  IC50: > 500 µM

Some compounds may have been tested in ways that are not shown here.
